# According to paper PMC3855626 (Biochemistry, 2013):
# Tests used:
# [1] = test system: M1 – M4 muscarinic receptors; type: binding, human
# [2] = test system: M1 muscarinic receptors in sympathetic ganglia; conditions: in vivo, iv; cited from earlier work
compound,measurement,setting,value
"C[N+](C)(C)CC#CCOC(=O)Nc1cccc(Cl)c1.[Cl-] [McN-A-343, [4-[[N-(3-chlorophenyl)carbamoyl]oxy]-2-butynyl] trimethylammonium chloride]",Hill coefficients of the competition curves,[1],approximately equal to one
same,blood pressure response,[2],elicits a pressor response
